Reference: PubChem BioAssay AID504761 (Drosophila RNAi Screening Center, 2011)
The screen tested about 22,000 reagents; shown is an unselected part of those that have a named target and a result. In the full data, 116 (0.52%) were called active. 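Calls depend on retest data that are not deposited; infection was ranked per plate without normalising between plates; the unit of the infection score is not given.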 The raw values are shown without normalisation. Entries without a mark were called inactive. The numbers tell different reagents against one gene apart. Names joined by + are all predicted targets of the reagent. The record does not give: the amount of reagent, the time to read-out.

Screen: 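Insect host genes that dengue virus relies on to spread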 (primary screen)
Cell system: D.Mel-2 cells from Drosophila
Knock-down reagent: long dsRNA against Drosophila genes
Conditions: infection with dengue virus type 2; dose and infection time not stated
Detection: 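Cells stained for dengue envelope protein and imaged; percent of infected cells per well on duplicate plates, ranked by infection, with stained nuclei counted for cell number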
Reading the numbers: infection score: higher = more virus-infected cells; cell count: higher = more cells in the well
Active means: 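Very low infection ranking in both replicate wells (chance probability at most 0.065), then a retest showing infection dropped 1.5-fold or more at p below 0.05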
Meaning of the calls: active = confirmed: knock-down lowers infection; inactive = not picked or not confirmed

gene | reagent | infection score, replicate 1 | infection score, replicate 2 | cell count, replicate 1 | cell count, replicate 2
Polr3D | 1 | 7.1 | 14.7 | 4833 | 4974
Polr3D | 2 | 2.94 | 4.72 | 2895 | 5554
CG12481 | 1 | 2.18 | 1.25 | 6598 | 6655
Culd | 1 | 4.41 | 11.4 | 1792 | 3074
Pp1alpha-96A | 1 | 2.02 | 2.45 | 7223 | 6298
Pp1alpha-96A | 2 | 0.78 | 24.1 | 5733 | 5679
Pp1alpha-96A | 3 | 3.86 | 8.36 | 5849 | 6399
Cpr47Ef | 1 | 29.9 | 7.19 | 5239 | 6745
Cpr47Ef | 2 | 1.8 | 4.31 | 6326 | 6841
Cpr47Ef | 3 | 4.34 | 1.14 | 6159 | 6389
Cpr47Ef | 4 | 9.91 | 10.2 | 5739 | 5434
l(3)psg2 | 1 | 4.22 | 8.35 | 6067 | 6036
l(3)psg2 | 2 | 7.86 | 3.31 | 5799 | 6009
CG5302 (retired record) | 1 | 3.94 | 7.51 | 6496 | 6541
CG5302 (retired record) | 2 | 9.46 | 12.7 | 6165 | 5875
CG5302 (retired record) | 3 | 1.28 | 2.62 | 6946 | 6685
Hsp60B | 1 | 2.86 | 3.59 | 6155 | 6093
CG15877 | 1 | 3.33 | 3.54 | 6011 | 6530
CG18870 | 1 | 4.82 | 5.67 | 6737 | 6795
wls | 1 | 8 | 7.74 | 6091 | 6425
wls | 2 | 4.1 | – | 1072 | 266
CG18266 | 1 | 7.6 | 0.57 | 6135 | 6496
CG3528 | 1 | 3.98 | 5.19 | 6483 | 6766
CG3528 | 2 | 13.2 | 17.3 | 3856 | 5643
Liprin-alpha | 1 | 0.97 | – | 926 | 474
Liprin-alpha | 2 | 19.7 | 4.45 | 6372 | 6856
hydra | 1 | 8.61 | 1.63 | 6003 | 5823
Mpcp1 | 1 | 4.34 | 0.82 | 5804 | 6111

The list goes on (9 carried over from the part before).
gene | reagent | infection score, replicate 1 | infection score, replicate 2 | cell count, replicate 1 | cell count, replicate 2
wls | 1 | 8 | 7.74 | 6091 | 6425
wls | 2 | 4.1 | – | 1072 | 266
CG18266 | 1 | 7.6 | 0.57 | 6135 | 6496
CG3528 | 1 | 3.98 | 5.19 | 6483 | 6766
CG3528 | 2 | 13.2 | 17.3 | 3856 | 5643
Liprin-alpha | 1 | 0.97 | – | 926 | 474
Liprin-alpha | 2 | 19.7 | 4.45 | 6372 | 6856
hydra | 1 | 8.61 | 1.63 | 6003 | 5823
Mpcp1 | 1 | 4.34 | 0.82 | 5804 | 6111
TkR99D | 1 | 3.84 | 10.4 | 6460 | 5668
gammaTub37C | 1 | 13.8 | 15.5 | 6089 | 6268
gammaTub37C | 2 | 3.47 | 0.97 | 6020 | 5952
rad50 | 1 | 16.5 | 15 | 6014 | 6320
Rpp20 + CG33932 | 1 | 3.38 | 2.86 | 4915 | 5800
CG43328 | 1 | 0.45 | 0.14 | 6243 | 5779
CG10802 | 1 | 1.69 | – | 6226 | 246
CG10802 | 2 | 25.6 | 4.38 | 5302 | 1072
L (retired record) | 1 | 15.7 | 21.4 | 6115 | 5975
L (retired record) | 2 | 7.46 | 4.7 | 6017 | 5684
CG14787 | 1 | 5.44 | – | 6671 | 354
CG11018 | 1 | – | 4.1 | 355 | 1244
CG11018 | 2 | 8.04 | – | 2027 | 444
CG11249 | 1 | 3.98 | 2.72 | 6334 | 6328
CG31642 | 1 | 1.68 | 0.81 | 6064 | 6200
CG31642 | 2 | 1.43 | 1.76 | 6414 | 6310
Ccdc56 + mtTFB1 | 1 | – | – | 348 | 23
CG9485 | 1 | 1.28 | 26.7 | 6571 | 5385
CG4576 | 1 | 1.25 | 10.3 | 6698 | 6287
CG4576 | 2 | 9.13 | 5.62 | 3231 | 6578
CG34283 | 1 | 3.9 | 1.63 | 6720 | 6645
Atg13 | 1 | 12.4 | 7.17 | 6154 | 7073
UQCR-C2 | 1 | 3.28 | 5 | 6166 | 5037
UQCR-C2 | 2 | 20.4 | 24.4 | 5088 | 5036
CR14033 | 1 | 3.23 | 23 | 5910 | 3893
CR14033 | 2 | 2.51 | 4.22 | 5748 | 6036
MED16 | 1 | 22 | 25.2 | 6221 | 5791
MED16 | 2 | 1.48 | 4.72 | 6840 | 6355
Dys | 1 | 7.1 | 3.63 | 5930 | 6013
Dys | 2 | 0.97 | 3.86 | 6275 | 6967
Dys | 3 | 4.45 | 2.52 | 6771 | 6639
Dys | 4 | 11 | 1.4 | 6534 | 7192
Dys | 5 | 6.68 | 2.59 | 6493 | 1041
Dys | 6 | 0.58 | 6.8 | 6699 | 5452
Dys | 7 | 7.75 | 4.2 | 6660 | 6480
